Measured values from paper PMC11359509, “Anti-Skin Aging Potential, Antibacterial Activity, Inhibition of Single-Stranded DNA-Binding Protein, and Cytotoxic Effects of Acetone-Extracted Passiflora edulis (Tainung No. 1) Rind Extract on Oral”.

Protein sequences, listed by entry. Tags and fused reporters are not part of them. Lines headed by an entry give the natural chain unless they say otherwise; changes in a name come on top.
UniProt A6TGW7: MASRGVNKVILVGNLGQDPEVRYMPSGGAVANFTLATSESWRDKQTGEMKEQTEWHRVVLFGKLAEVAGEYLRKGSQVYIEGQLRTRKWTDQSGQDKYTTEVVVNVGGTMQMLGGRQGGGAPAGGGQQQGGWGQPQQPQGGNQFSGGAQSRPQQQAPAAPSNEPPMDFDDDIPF

Target: KpSSB (single-stranded DNA-binding protein) (Klebsiella pneumoniae) (UniProt A6TGW7)
Test: EMSA
Settings: 40 mM Tris-HCl pH 7.5, 50 mM NaCl, 37 °C, 60 min, 30 fmol/uL biotinylated ssDNA, 8% native PAGE in TBE, recombinant protein

Measured: binding result

TTTTTTTTTTTTTTTTTTTTTTTTTTTTTTTTTTT [dT35]
binds more weakly: 310 nM SSB + acetone rind extract of P. edulis 125-3000 ug/mL (extract IC50 313.2 +/- 21.0 ug/mL) | 310 nM SSB + ethanol rind extract (up to 3000 ug/mL), less potent than acetone extract | 310 nM SSB + methanol rind extract (up to 3000 ug/mL), less potent than acetone extract

For at least one entry, the source does not settle the construct or the ends of the probe. A weaker result is weaker than the reference pair of the same experiment.
